# Measured values reported in publication PMC5681660, “Reduced hepatitis B and D viral entry using clinically applied drugs as novel inhibitors of the bile acid transporter NTCP” (Scientific Reports, 2017).
# Where two headings read alike, the source gives them in different places.
# How the values were obtained:
# [1] = target: T1, human NTCP (Homo sapiens, UniProt Q14973); experiment: Screening taurocholate uptake assay (96-well, [14C]taurocholate, 10 µM drug)
# T1 sequence (Q14973 1-349): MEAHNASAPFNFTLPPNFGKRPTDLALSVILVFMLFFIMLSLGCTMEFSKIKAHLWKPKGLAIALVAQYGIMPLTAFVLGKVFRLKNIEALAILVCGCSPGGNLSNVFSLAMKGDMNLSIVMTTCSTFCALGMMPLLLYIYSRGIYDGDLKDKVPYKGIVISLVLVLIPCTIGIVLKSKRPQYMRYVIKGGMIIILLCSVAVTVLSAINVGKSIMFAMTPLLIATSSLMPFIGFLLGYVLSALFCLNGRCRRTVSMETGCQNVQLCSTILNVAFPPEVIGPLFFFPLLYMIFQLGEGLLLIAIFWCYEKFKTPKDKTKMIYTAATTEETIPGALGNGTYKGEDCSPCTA
# [2] = target: T1, human NTCP; experiment: Screening fluorescent competitive Myrcludex B-FITC binding assay (96-well, 10 µM drug)
# [3] = screen, Myrcludex B-FITC binding
# [4] = Prestwick library screen, Myrcludex B-FITC binding
# [5] = screening Myrcludex B-FITC binding
# [6] = screening taurocholate uptake, 10 µM drug, Prestwick library
# [7] = screening Myrcludex B-FITC binding, Prestwick library
substance,measurement,setting,value
Tyloxapol,%NTCP activity,[1],53.7408%
same,%NTCP binding,[2]; [3],93.207%
Deoxycorticosterone,%NTCP activity,[1],53.4598%
same,%NTCP binding,[2]; [3],83.6373%
Cyanocobalamin,%NTCP activity,[1],41.5146%
same,%NTCP binding,[2]; [4],68.6256%
(S)-(-)-Cycloserine,B-score binding assay,[2]; [5],-3.125
Spiramycin,%NTCP activity,"[1]; Prestwick library screen, 10 µM drug, [14C]taurocholate uptake",73.3638%
same,%NTCP binding,[2]; [4],126.924%
Eburnamonine (-),%NTCP activity,"[1]; screen, 10 µM drug, [14C]taurocholate uptake",97.5753%
same,%NTCP binding,[2]; [3],85.5398%
Colistin sulfate,%NTCP activity,[1]; [6],21.2205%
same,B-score binding assay,[2]; [5],0.936
same,%NTCP binding,[2]; [7],84.9553%
R(-) Apomorphine hydrochloride hemihydrate,%NTCP activity,[1]; [6],74.8711%
same,%NTCP binding,[2]; [7],93.5426%
Verteporfin,B-score binding assay,[2]; [5],-8.361
(-) -Levobunolol hydrochloride,%NTCP binding,[2]; [4],98.4794%
Bacitracin,%NTCP activity,[1],51.4928%
Norgestrel-(-)-D,%NTCP activity,[1],89.1345%
same,%NTCP binding,[2]; [4],82.4714%
